From patent USRE37793E1, “Method and composition for inhibiting bacteria” (Winthrop University Hospital, priority 1995, dated 2002)

What was measured:
[1] = system: methicillin-resistant S. aureus (MRSA); assay: Agar diffusion, zones of inhibition; assay type: cell-based, Staphylococcus aureus; conditions: MRSA (27 isolates); discs Bi(No3)3 157 μg, BAL 186 μg, BisBAL 157/31 μg; 24 h, 37° C.
[2] = system: vancomycin-resistant enterococci (VRE); assay: Agar diffusion, zones of inhibition; assay type: cell-based; conditions: VRE (10 isolates); discs Bi(No3)3 157 μg, BAL 186 μg, BisBAL 157/31 μg; 24 h, 37° C.
Helicobacter pylori = assay: Agar diffusion in a microaerophilic atmosphere, ten clinical isolates; assay type: cell-based; conditions: H. pylori, Bi^3+ 157 μg, BAL 186 μg, BisBAL 157/31 μg

## OCC(S)CS (stereo not drawn)
[1]
  Zones of Inhibition: ≦6.0 mm
[2]
  Zones of Inhibition: ≦6.0 mm
Helicobacter pylori
  Zone diameter of inhibition: little or no zones of inhibition
